Measured values from several laboratories, pooled; numbers as filed in NIAID ChemDB.

Shared fields: whole-cell or culture tests; agent: Candida albicans

A number after MIC or MFC names an inhibition level or a share of isolates. Lines come from different laboratories, so protocols vary.

CSCCC(N)C(=O)N[C@H]1[C@@H](O)[C@H](n2cnc3c(N)ncnc32)O[C@@H]1C(=O)O ; strain: FP633 ; endpoint: MIC ; result: 1.6 µg/mL
CCCCN(Cc1cn(Cc2ccccc2C#N)nn1)CC(O)(Cn1cncn1)c1ccc(F)cc1F ; strain: Y0109 ; endpoint: MIC80 ; result: 16 µg/mL
CC(C)(N)CNCc1ccc(-c2csc(-c3ccc(Cl)cc3)n2)cc1 ; endpoint: MIC50 ; result: 8 µg/mL
Fc1ccc(C(c2nccc3ccccc23)n2ccnc2)cc1.O=[N+]([O-])O ; strain: 44 strains ; endpoint: Mean MIC ; result: 88.4 µg/mL
Cn1ccnc1C(=O)c1nccn1C ; strain: ATCC 10231 ; endpoint: MIC ; setting: 48 h ; method: broth dilution ; result: >512 µg/mL
Fc1ccc(COc2ccc(C(c3cccc4ccccc34)n3ccnc3)cc2)c(F)c1.O=[N+]([O-])O ; strain: 17 strains ; endpoint: Mean MIC ; result: ≥256 µg/mL
CCCCN(Cc1cn(Cc2ccc(Cl)cc2)nn1)CC(O)(Cn1cncn1)c1ccc(F)cc1F ; strain: Y0109 ; endpoint: MIC80 ; result: 16 µg/mL
CC1(C)CC[C@]2(C(=O)O)CC[C@]3(C)C(=CC[C@@H]4[C@@]5(C)CC[C@H](OC6O[C@H](CO)[C@@H](O)[C@H](O)[C@H]6O)[C@@](C)(CO)[C@@H]5CC[C@]43C)[C@@H]2C1 ; strain: Clinical isolates ; endpoint: MFC ; result: >100 µg/mL
Nc1ncnc2c1ncn2[C@@H]1O[C@H](C(=O)O)[C@@H](NC(=O)C(N)Cc2ccc(Cl)cc2)[C@H]1O ; strain: FP633 ; endpoint: MIC ; result: 6.2 µg/mL
C[C@@H]1[C@H](O)[C@@H](C)/C=C/C=C/C=C/C=C/C=C/C=C/C=C/[C@H](O[C@@H]2O[C@H](C)[C@@H](O)[C@H](N)[C@@H]2O)C[C@@H]2O[C@](O)(C[C@@H](O)C[C@@H](O)[C@H](O)CC[C@@H](O)C[C@@H](O)CC(=O)O[C@H]1C)C[C@H](O)[C@H]2C(=O)O ; strain: ATCC 66396 ; endpoint: MIC80 ; method: turbidity / absorbance ; result: 0.062 µg/mL
Cn1cnc(-c2ccccc2)c1 ; strain: ATCC 10231 ; endpoint: MIC ; setting: 48 h ; method: broth dilution ; result: 500 µg/mL
Nc1ncc(CC(N)C(=O)N[C@H]2[C@@H](O)[C@H](n3cnc4c(N)ncnc43)O[C@@H]2C(=O)O)s1 ; strain: FP633 ; endpoint: MIC ; result: 6.2 µg/mL
CCCOC(=O)CC(c1nccn1C)c1nccn1C ; strain: ATCC 10231 ; endpoint: MIC ; setting: 48 h ; method: broth dilution ; result: >512 µg/mL
CCCCN(Cc1cn(Cc2ccccc2Br)nn1)CC(O)(Cn1cncn1)c1ccc(F)cc1F ; strain: Y0109 ; endpoint: MIC80 ; result: 0.5 µg/mL
CS(=O)CC[C@H](N)C(=O)N[C@H]1[C@@H](O)[C@H](n2cnc3c(N)ncnc32)O[C@@H]1C(=O)O ; strain: FP633 ; endpoint: MIC ; result: >100 µg/mL
COC(/C=C/c1ccccc1)=C1/C(=O)C=C(C)C1=O ; strain: ATCC 90028 ; endpoint: MIC ; result: 0.78 µg/mL
CC(C)OC(=O)/C=C/c1ccccc1 ; endpoint: MIC ; result: 0.002 µg/mL
Nc1ncnc2c1ncn2[C@@H]1O[C@H](C(=O)O)[C@@H](NC(=O)C(N)CSCc2cccs2)[C@H]1O ; strain: FP633 ; endpoint: MIC ; result: 0.8 µg/mL
CCCCN(Cc1cn(Cc2cccc(F)c2)nn1)CC(O)(Cn1cncn1)c1ccc(F)cc1F ; strain: Y0109 ; endpoint: MIC80 ; result: 4 µg/mL
c1ccc(-c2ccc(C(c3cccc4ccccc34)n3ccnc3)cc2)cc1 ; strain: 23 strains ; endpoint: MIC90 ; result: 256 µg/mL
COc1cc(C=O)ccc1OP1(Oc2ccc(C=O)cc2OC)=NP(Oc2ccc(C=O)cc2OC)(Oc2ccc(C=O)cc2OC)=NP(Oc2ccc(C=O)cc2OC)(Oc2ccc(C=O)cc2OC)=N1 ; endpoint: MIC ; method: agar diffusion / agar ; result: >100 µg/mL
CN(C)c1ccc(CSCC(N)C(=O)N[C@H]2[C@@H](O)[C@H](n3cnc4c(N)ncnc43)O[C@@H]2C(=O)O)cc1 ; strain: FP633 ; endpoint: MIC ; result: 0.8 µg/mL
CCCCN(Cc1cn(Cc2cccc(C#N)c2)nn1)CC(O)(Cn1cncn1)c1ccc(F)cc1F ; strain: SC5314 ; endpoint: MIC80 ; result: 4 µg/mL
COc1cc(O)c2c(c1)C(=O)c1c(cc3c(c1O)-c1c(cc(C)c(C(=O)NCC(=O)O)c1O)[C@H](OC1OC(C)C(N(C)C)C(OC4OCC(O)C(O)C4O)C1O)[C@H]3O)C2=O ; strain: ATCC 38247 (amphotericin B-resistant) ; endpoint: MIC ; result: 1.6 µg/mL
CC(C)(N)CSCc1ccc(-c2csc(-c3ccc(Cl)cc3)n2)cc1 ; endpoint: MIC50 ; result: 4 µg/mL
Nc1ncnc2c1ncn2[C@@H]1O[C@H](C(=O)O)[C@@H](NC(=O)C(N)Cc2ccc([N+](=O)[O-])cc2)[C@H]1O ; strain: FP633 ; endpoint: MIC ; result: 50 µg/mL
Clc1ccccc1COc1ccc(C(c2ccc3ccccc3c2)n2ccnc2)cc1.O=[N+]([O-])O ; strain: 17 strains ; endpoint: MIC90 ; result: ≥256 µg/mL
COc1ccc(C(c2ccc3ccccc3c2)n2ccnc2)cc1 ; strain: 23 strains ; endpoint: Mean MIC ; result: 7.1 µg/mL
NC(=O)N/N=C/c1ccsc1 ; strain: ATCC 66396 ; endpoint: MIC80 ; method: turbidity / absorbance ; result: >250 µg/mL
Clc1cccc(Cl)c1COc1ccc(C(c2cccc3ccccc23)n2ccnc2)cc1.O=[N+]([O-])O ; strain: 16 strains ; endpoint: Mean MIC ; result: ≥256 µg/mL
CC[C@@H](C)n1ncn(-c2ccc(N3CCN(c4ccc(OC[C@@H]5CO[C@@](Cn6cncn6)(c6ccccn6)O5)cc4)CC3)cc2)c1=O ; strain: GEN-45 ; endpoint: MIC ; result: ≤0.03 µg/mL
Clc1ccc2oc(Cc3ccc(Br)cc3)nc2c1 ; endpoint: MIC ; result: 25 µg/mL
C[C@@H]1O[C@@H](O[C@H]2[C@H](O[C@H]3CC[C@@]4(C)[C@@H](CC[C@]5(C)[C@@H]4CC=C4[C@@H]6CC(C)(C)CC[C@]6(C(=O)O)CC[C@]45C)[C@]3(C)CO)OC[C@H](O)[C@@H]2O)[C@H](O)[C@H](O)[C@H]1O ; strain: Y0109 ; endpoint: MFC ; result: 25 µg/mL
O=C(/C=C/c1ccccc1)Oc1ccccc1 ; endpoint: MIC ; result: 0.002 µg/mL
Cc1ccc(C(=O)Nc2ccccc2O)cc1 ; endpoint: MIC ; result: 12.5 µg/mL
CN(CCc1ccc(-c2csc(-c3ccc(Cl)cc3)n2)cc1)CC(C)(C)N ; endpoint: MIC50 ; result: 8 µg/mL
Fc1ccc(C(c2cccc3ccccc23)n2ccnc2)cc1 ; strain: 23 strains ; endpoint: MIC90 ; result: 16 µg/mL
C[C@@H]1O[C@@H](O[C@H]2[C@H](O[C@H]3CC[C@]4(C)[C@H]5CC=C6[C@@H]7CC(C)(C)CC[C@]7(C(=O)O)CC[C@@]6(C)[C@]5(C)CC[C@H]4C3(C)C)OC[C@H](O)[C@@H]2O)[C@H](O)[C@H](O)[C@H]1O ; strain: Y0109 ; endpoint: MFC ; result: >100 µg/mL
CCCCN(Cc1cn(Cc2ccc(C)cc2)nn1)CC(O)(Cn1cncn1)c1ccc(F)cc1F ; strain: SC5314 ; endpoint: MIC80 ; result: <0.125 µg/mL
COc1ccc(C(=O)O/N=C/c2ccc(OP3(Oc4ccc(/C=N/OC(=O)c5ccc(OC)cc5)cc4OC)=NP(Oc4ccc(/C=N/OC(=O)c5ccc(OC)cc5)cc4OC)(Oc4ccc(/C=N/OC(=O)c5ccc(OC)cc5)cc4OC)=NP(Oc4ccc(/C=N/OC(=O)c5ccc(OC)cc5)cc4OC)(Oc4ccc(/C=N/OC(=O)c5ccc(OC)cc5)cc4OC)=N3)c(OC)c2)cc1 ; endpoint: MIC ; method: agar diffusion / agar ; result: >100 µg/mL
C[C@]12CC[C@H](O)CC1=CCC1=C2CC[C@]2(C)CCCC12 ; strain: IP 1180.79 ; endpoint: MIC ; result: >250 µM
CCCCN(Cc1cn(Cc2ccc([N+](=O)[O-])cc2)nn1)CC(O)(Cn1cncn1)c1ccc(F)cc1F ; strain: SC5314 ; endpoint: MIC80 ; result: 2 µg/mL
c1csc(C(c2cccc3ccccc23)n2ccnc2)c1 ; strain: 23 strains ; endpoint: Mean MIC ; result: 15.2 µg/mL
CCC(C)OC(=O)/C=C/c1ccccc1 ; endpoint: MIC ; result: 0.001 µg/mL
C=CCO/N=C/c1ccc(OP2(Oc3ccc(/C=N/OC=C)cc3OC)=NP(Oc3ccc(/C=N/OCC=C)cc3OC)(Oc3ccc(/C=N/OCC=C)cc3OC)=NP(Oc3ccc(/C=N/OCC=C)cc3OC)(Oc3ccc(/C=N/OCC=C)cc3OC)=N2)c(OC)c1 ; endpoint: MIC ; method: agar diffusion / agar ; result: >100 µg/mL
CC(C)=C(CCc1ccc2c(c1)C(=O)C=CC2=O)C(C)CCCO ; endpoint: MIC ; result: 3 µg/mL
Clc1ccc(C(c2ccc3ccccc3c2)n2ccnc2)s1 ; strain: 23 strains ; endpoint: MIC90 ; result: 4 µg/mL
C[n+]1c[nH]cc1-c1ccccc1 ; strain: ATCC 10231 ; endpoint: MIC ; setting: 24 h ; method: broth dilution ; result: 500 µg/mL
C=CCc1ccc(O)c(OC)c1 ; strain: 2357 ; endpoint: MIC90 ; method: turbidity ; result: 500 µg/mL
Cc1ccc(O)c(NC(=O)c2ccc(C(C)(C)C)cc2)c1 ; endpoint: MIC ; result: 25 µg/mL
c1ccc2c(C(c3ccc(-n4cccc4)cc3)n3ccnc3)cccc2c1 ; strain: 23 strains ; endpoint: MIC90 ; result: 8 µg/mL
Clc1ccc(COc2ccc(C(c3ccc4ccccc4c3)n3ccnc3)cc2)cc1.O=[N+]([O-])O ; strain: 16 strains ; endpoint: MIC90 ; result: ≥256 µg/mL
Nc1ncnc2c1ncn2[C@@H]1O[C@H](C(=O)O)[C@@H](NC(=O)C(N)CSC/C=C\c2ccccc2)[C@H]1O ; strain: FP633 ; endpoint: MIC ; result: 0.2 µg/mL
CCC(C)n1ncn(-c2ccc(N3CCN(c4ccc(OC[C@H]5CO[C@](Cn6cncn6)(c6ccncc6)O5)cc4)CC3)cc2)c1=O ; strain: 21 ; endpoint: MIC ; result: 39 µg/mL
CC1(C)CC[C@]2(C(=O)O)CC[C@]3(C)C(=CC[C@@H]4[C@@]5(C)CC[C@H](OC6O[C@H](CO)[C@@H](O)[C@H](O)[C@H]6OC6O[C@H](CO)[C@@H](O)[C@H](O)[C@H]6O)[C@@](C)(CO)[C@@H]5CC[C@]43C)[C@@H]2C1 ; strain: Clinical isolates ; endpoint: MFC ; result: >100 µg/mL
COc1cc(/C=N/OC(=O)CCl)ccc1OP1(Oc2ccc(/C=N/OC(=O)CCl)cc2OC)=NP(Oc2ccc(/C=N/OC(=O)CCl)cc2OC)(Oc2ccc(/C=N/OC(=O)CCl)cc2OC)=NP(Oc2ccc(/C=N/OC(=O)CCl)cc2OC)(Oc2ccc(/C=N/OC(=O)CCl)cc2OC)=N1 ; endpoint: MIC ; method: agar diffusion / agar ; result: >100 µg/mL
CCOC(=O)/C=C/c1ccccc1 ; endpoint: MIC ; result: 0.002 µg/mL
CCCCN(Cc1cn(Cc2ccccc2F)nn1)CC(O)(Cn1cncn1)c1ccc(F)cc1F ; strain: Y0109 ; endpoint: MIC80 ; result: 16 µg/mL
Clc1ccc(Cc2nc3ccccc3o2)cc1 ; endpoint: MIC ; result: 25 µg/mL

The last 5 rows once more:

{"SMILES": "CC1(C)CC[C@]2(C(=O)O)CC[C@]3(C)C(=CC[C@@H]4[C@@]5(C)CC[C@H](OC6O[C@H](CO)[C@@H](O)[C@H](O)[C@H]6OC6O[C@H](CO)[C@@H](O)[C@H](O)[C@H]6O)[C@@](C)(CO)[C@@H]5CC[C@]43C)[C@@H]2C1", "strain": "Clinical isolates", "endpoint": "MFC", "result": ">100 µg/mL"}
{"SMILES": "COc1cc(/C=N/OC(=O)CCl)ccc1OP1(Oc2ccc(/C=N/OC(=O)CCl)cc2OC)=NP(Oc2ccc(/C=N/OC(=O)CCl)cc2OC)(Oc2ccc(/C=N/OC(=O)CCl)cc2OC)=NP(Oc2ccc(/C=N/OC(=O)CCl)cc2OC)(Oc2ccc(/C=N/OC(=O)CCl)cc2OC)=N1", "endpoint": "MIC", "method": "agar diffusion / agar", "result": ">100 µg/mL"}
{"SMILES": "CCOC(=O)/C=C/c1ccccc1", "endpoint": "MIC", "result": "0.002 µg/mL"}
{"SMILES": "CCCCN(Cc1cn(Cc2ccccc2F)nn1)CC(O)(Cn1cncn1)c1ccc(F)cc1F", "strain": "Y0109", "endpoint": "MIC80", "result": "16 µg/mL"}
{"SMILES": "Clc1ccc(Cc2nc3ccccc3o2)cc1", "endpoint": "MIC", "result": "25 µg/mL"}